Potato spindle tuber viroid, stem 15: variant abundance in plants

The measurements come from Wu et al. 2024 (doi:10.1371/journal.ppat.1012142).

Region: stem 15 of PSTVd (intermediate strain), upper and lower strand joined, each 5' to 3', the first 9 letters being the upper strand. Wild type: CUGGAGCGAUCGCUUCGG. Varied positions (N): CUGGAGCGAUNGNNUNNG.

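A pool of all variants was put on leaves of three Nicotiana benthamiana plants. Samples came from the inoculated region at 5 days, the leaf margin at 10 and upper systemic leaves at 12.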

Numbers give reads per thousand; 0 = not seen among the reads, higher = more abundant. Each site shows the three plants. "Pool" is the share in the plasmid pool used as inoculum, on the same scale. The inoculated region was read from the minus strand, the other sites from the plus strand.

CUGGAGCGAGCGCUUCGG (pool 0.0646) gave inoculated region 0.176 / 0.168 / 0.186; leaf margin 0.0207 / 0.191 / 0.111; systemic leaves 0.0594 / 0.0886 / 0.140. CUGGAGCGAUAGUUUGAG (pool 0.776) read inoculated region 0.372 / 0.188 / 0.242; leaf margin 0.0827 / 0.0545 / 0.0317; systemic leaves 0 / 0 / 0. CUGGAGCGAUUGGGUAUG (pool 0.840) gave inoculated region 0.235 / 0.126 / 0.354; leaf margin 0.0620 / 0.0273 / 0.0159; systemic leaves 0 / 0 / 0. CUGGAGCGAUGGAUUUCG (pool 0.792) read inoculated region 0.274 / 0.230 / 0.335; leaf margin 0.0827 / 0.0818 / 0; systemic leaves 0 / 0 / 0. CUGGAGCGAUUGCUUAAG (pool 0.905) gave inoculated region 0.196 / 0.188 / 0.186; leaf margin 0.0207 / 0 / 0; systemic leaves 0 / 0 / 0. CUGGAGCGAUCGAGUCGG (pool 0.695) gave inoculated region 0.196 / 0.314 / 0.279; leaf margin 0.103 / 0.0273 / 0; systemic leaves 0 / 0 / 0.

For CUGGAGCGAUAGUCUACG (pool 2.39) the result was inoculated region 0.861 / 1.49 / 0.949; leaf margin 0 / 0.0818 / 0; systemic leaves 0 / 0 / 0.0199. CUGGAGCGAUGGACUCUG (pool 0.792) read inoculated region 0.294 / 0.356 / 0.186; leaf margin 0.165 / 0 / 0.0317; systemic leaves 0 / 0 / 0. CUGGAGCGAUAGUCUGAG (pool 0.743) gave inoculated region 2.15 / 0.942 / 0.261; leaf margin 0.0620 / 0 / 0.0476; systemic leaves 0 / 0 / 0. With CUGGAGCGAUGGUCUCCG (pool 0.808) the assay gave inoculated region 0.235 / 0.230 / 0.335; leaf margin 0.0207 / 0.0545 / 0; systemic leaves 0 / 0 / 0. CUGGAGCGAUUGCAUGGG (pool 0.727) gave inoculated region 0.274 / 0.314 / 0.391; leaf margin 0.0827 / 0.0545 / 0.0317; systemic leaves 0 / 0 / 0. CUGGAGCGAUGGGAUAGG (pool 0.970) read inoculated region 0.196 / 0.251 / 0.205; leaf margin 0.0827 / 0.0273 / 0.0317; systemic leaves 0 / 0 / 0.

CUGGAGCGAUCGACUCAG (pool 0.937) read inoculated region 0.294 / 0.377 / 0.391; leaf margin 0.103 / 0.0273 / 0; systemic leaves 0 / 0 / 0. With CUGGAGCGAUGGAGUGAG (pool 0.776) the assay gave inoculated region 0.235 / 0.188 / 0.391; leaf margin 0 / 0 / 0; systemic leaves 0 / 0 / 0. For CUGGAGCGAUCGUAUCUA (pool 0.598) the result was inoculated region 0.215 / 0.607 / 0.540; leaf margin 0 / 0 / 0; systemic leaves 0 / 0 / 0. CUGGAGCGAUCGUGUUCG (pool 1.00) read inoculated region 0.313 / 1.24 / 0.316; leaf margin 0.0414 / 0.0545 / 0.0317; systemic leaves 0 / 0 / 0. For CUGGAGCGAUGGCAUGGG (pool 0.582) the result was inoculated region 0.254 / 0.147 / 0.335; leaf margin 0.103 / 0 / 0; systemic leaves 0 / 0 / 0. With CUGGAGCGAUAGACUUCG (pool 0.614) the assay gave inoculated region 0.313 / 0.272 / 0.298; leaf margin 0.0414 / 0.0545 / 0.0159; systemic leaves 0 / 0 / 0.

CUGGAGCGAUAGGCUAAG (pool 0.663) gave inoculated region 0.157 / 0.272 / 0.354; leaf margin 0.0414 / 0.0545 / 0; systemic leaves 0 / 0 / 0. For CUGGAGCGAUGGAAUCCG (pool 0.986) the result was inoculated region 0.254 / 0.251 / 0.409; leaf margin 0.103 / 0.0545 / 0.0159; systemic leaves 0 / 0 / 0. CUGGAGCGAUUGGCUUUG (pool 0.954) gave inoculated region 2.17 / 1.01 / 1.49; leaf margin 0.517 / 0.0273 / 1.13; systemic leaves 0.752 / 0 / 0. With CUGGAGCGAUCGCGUAGG (pool 0.889) the assay gave inoculated region 0.294 / 0.293 / 0.428; leaf margin 0 / 0 / 0.0476; systemic leaves 0 / 0 / 0. With CUGGAGCGAUGGUGUCUG (pool 0.873) the assay gave inoculated region 0.294 / 0.209 / 0.465; leaf margin 0.0827 / 0.0273 / 0.0159; systemic leaves 0 / 0 / 0.

The first 2 entries again:

* CUGGAGCGAGCGCUUCGG (pool 0.0646): inoculated region 0.176 / 0.168 / 0.186; leaf margin 0.0207 / 0.191 / 0.111; systemic leaves 0.0594 / 0.0886 / 0.140
* CUGGAGCGAUAGUUUGAG (pool 0.776): inoculated region 0.372 / 0.188 / 0.242; leaf margin 0.0827 / 0.0545 / 0.0317; systemic leaves 0 / 0 / 0

For reference, wild type rose from 10.2 per thousand in the pool to 285, 367, 312 (inoculated region), 785, 865, 782 (leaf margin) and 854, 898, 915 (systemic leaves). Samples held 36,693 to 63,082 reads, so the smallest values rest on one or two reads. The authors trace changes outside the varied positions to PCR and sequencing errors or to mutation in the plant; presence does not show that a variant is infectious alone.